A mixed list of measured activities; the numbers were collected in NIAID ChemDB.

Shared fields: growth or infection tests; species: HIV-2; cell line: CEM; endpoint: EC50

ECn: concentration that inhibits the pathogen or its effect by n%. Blank or dashed fields: not listed here. Neighbouring rows are from separate reports.

compound	strain or isolate	method	value
CCOC(=O)C1=C2NC(=O)N([C@H]3C[C@H](N=[N+]=[N-])[C@@H](CO)O3)C=C2COC1=O	ROD	-	>300 µM
O=C1c2ccccc2C(=O)N1C1CC2CC3CC(C2)CC1C3	ROD	syncytia	>4 µg/mL
O=c1[nH]cnc2c1ncn2C1C[C@H](CO)[C@@H](CO)C1	-	-	>100 µg/mL
CCCCCCCCCCCC(=O)Oc1ccc(COP(=O)(OCc2ccc(OC(=O)CCCC)cc2)OP(=O)(O)OCC2C=C[C@H](n3cc(C)c(=O)[nH]c3=O)O2)cc1	ROD	syncytia	1.05 µM
O=C1NC23CC4CC(C2)C2C(C4)C3C2(O)c2ccccc21	ROD	syncytia	>20 µg/mL
NC1=NS(=O)(=O)N(Cc2ccccc2)c2nc(-c3ccc(Cl)cc3)[nH]c21	ROD	syncytia	>4 µg/mL
CNOC(=O)Cn1c(=O)c(C)cn([C@@H]2O[C@H](CO[Si](C)(C)C(C)(C)C)[C@@H](O[Si](C)(C)C(C)(C)C)[C@H]2O)c1=O	ROD	syncytia	>10 µM
CC[Si]1(C(C)C)O[C@H]2[C@@H](O)[C@H](c3ccccc3)O[C@@H]2CO[Si](C(C)C)(C(C)C)O1	ROD	cytopathic effect	>4 µg/mL
C[N+]1(C)CC2c3cc4c5c6c3-c3c(cc7c8c3C63C[N+](C)(C)CC36C3=C5C(C4)Cc4ccc5cc(c-8c6c5c43)C7)C2C1	ROD	cytopathic effect	>25 µM
Nc1ccc(C(=O)NC23CC4CC(CC(C4)C2)C3)cc1	ROD	syncytia	>73.5 µM
CO[C@H]1[C@H]2O[Si](C(C)C)(C(C)C)O[Si](C(C)C)(C(C)C)OC[C@@H]2O[C@@H]1c1ccccc1	ROD	cytopathic effect	>4 µg/mL
Cc1ccc(C(C)S(=O)(=O)c2c(C)ccc[n+]2[O-])c(C)c1	ROD	syncytia	>100 µg/mL
Cc1cn([C@@H]2O[C@H](COC(=O)C(C)(C)C)[C@@H](O)[C@H]2OC(=O)C(C)(C)C)c(=O)n(CC(=O)O)c1=O	ROD	syncytia	>250 µM
Nc1ncnc2c1ncn2[C@H]1C[C@@H](O)[C@H](O)[C@@H]1O	-	-	>4 µM
CN1OCc2cn([C@@H]3O[C@H](CO)[C@H]4OC(C)(C)O[C@H]43)c(=O)nc21	ROD	-	>300 µM
O=C1c2ccc([N+](=O)[O-])cc2C(=O)N1C12CC3CC(CC(C3)C1)C2	ROD	syncytia	>304 µM
Cc1cn([C@@H]2OC(O[Si](C)(C)C(C)(C)C)C3(OS(=O)(=O)C=C3NCCC(=O)OCc3ccccc3)C2O[Si](C)(C)C(C)(C)C)c(=O)n(C)c1=O	ROD	syncytia	>250 µM
O=C1NC[C@@H]2C34CC5CC(CC(C5)[C@H]3[C@]2(O)c2ccccc21)C4	ROD	syncytia	>20 µg/mL
CN1OCCc2cn([C@H]3C[C@H](O)[C@@H](CO)O3)c(=O)nc21	ROD	-	>300 µM
CCN(C)c1ncnc2c1ncn2C[C@@H](C)OCP(=O)(O)O	ROD	cytopathic effect / MTT	4 µg/mL
COC(=O)Cn1c(=O)c(C)cn([C@@H]2O[C@H](CO[Si](C)(C)C(C)(C)C)[C@@H](O[Si](C)(C)C(C)(C)C)[C@H]2O)c1=O	ROD	syncytia	>2 µM
CC(C)Nc1ncnc2c1ncn2C1C[C@H](CO)[C@@H](CO)C1	-	-	>100 µg/mL
Cc1cccc(C)c1N1C(=O)c2ccc(Cl)cc2C1=O	ROD	syncytia	>138 µM
[N-]=[N+]=N[C@H]1C[C@H](n2cc(CCON)c(=O)[nH]c2=O)O[C@@H]1CO	ROD	-	>300 µM
CCCCC(=O)Oc1ccc(COP(=O)(OCc2ccc(OC(=O)c3ccc(C)cc3)cc2)OP(=O)(O)OCC2C=C[C@H](n3cc(C)c(=O)[nH]c3=O)O2)cc1	ROD	syncytia	1.05 µM
CN(C)c1nc(N)nc2c1ncn2CCOCP(=O)(O)O	ROD	cytopathic effect / MTT	0.8 µg/mL
Nc1cccc2c1C(=O)N(C1C3CC4CC(C3)CC1C4)C2=O	ROD	syncytia	>4 µg/mL
C[C@H](Cn1cnc2c(NCCCC3CCCCC3)ncnc21)OCP(=O)(O)O	ROD	cytopathic effect / MTT	9.5 ± 3.5 µg/mL
OC[C@H]1CC(n2cnc3c(NC4CC4)ncnc32)C[C@@H]1CO	-	-	>100 µg/mL
NC1=NS(=O)(=O)N(Cc2ccccc2)c2nc(Cc3ccccc3)[nH]c21	ROD	syncytia	≥4 µg/mL
Cc1cn([C@@H]2O[C@H](CO[Si](C)(C)C(C)(C)C)[C@@H](O)[C@H]2O[Si](C)(C)C(C)(C)C)c(=O)n(Cc2nn[nH]n2)c1=O	ROD	syncytia	>10 µM
NC12CC3CC(CC(C3)C1C(=O)c1ccccc1C(=O)O)C2	ROD	syncytia	>100 µg/mL
[N-]=[N+]=N[C@H]1C[C@H](n2cc3c(nc2=O)NOCC3)O[C@@H]1CO	ROD	-	200 µM
Cc1cccc(C)c1N1C(=O)c2ccc(C(=O)O)cc2C1=O	ROD	syncytia	>133 µM
C[C@H](C[n+]1c[nH]c2c(Nc3ccccc3)nc(N)nc21)OCP(=O)(O)O	ROD	cytopathic effect / MTT	12.5 ± 3.5 µg/mL
O=c1nc2c(cn1[C@H]1C[C@H](O)[C@@H](CO)O1)CCON2	ROD	-	>300 µM
O=C1c2ccccc2[C@@]2(O)[C@H]3C4CC5CC(C4)CC3(C5)CN12	ROD	syncytia	>4 µg/mL
C[C@H](Cn1cnc2c(N(C)C)ncnc21)OCP(=O)(O)O	ROD	cytopathic effect / MTT	0.8 µg/mL
O=C1c2ccccc2C(=O)N1C12CC3CC(CC(C3)C1)C2	ROD	syncytia	>4 µg/mL
CCCCCCCCCC(=O)Oc1ccc(COP(=O)(OCc2ccc(OC(=O)CCCC)cc2)OP(=O)(O)OCC2C=C[C@H](n3cc(C)c(=O)[nH]c3=O)O2)cc1	ROD	syncytia	1.05 µM

A second listing of 4 rows from above:

compound	strain or isolate	method	value
O=c1nc2c(cn1[C@H]1C[C@H](O)[C@@H](CO)O1)CCON2	ROD	-	>300 µM
CCCCC(=O)Oc1ccc(COP(=O)(OCc2ccc(OC(=O)c3ccc(C)cc3)cc2)OP(=O)(O)OCC2C=C[C@H](n3cc(C)c(=O)[nH]c3=O)O2)cc1	ROD	syncytia	1.05 µM
O=c1[nH]cnc2c1ncn2C1C[C@H](CO)[C@@H](CO)C1	-	-	>100 µg/mL
C[C@H](Cn1cnc2c(NCCCC3CCCCC3)ncnc21)OCP(=O)(O)O	ROD	cytopathic effect / MTT	9.5 ± 3.5 µg/mL